Results: patent US20080139463A1 (priority 2005, published 2008)

Assay: general procedure: solution-phase peptide synthesis; TFFH/DIPEA (fragment coupling); PyAOP/sym-collidine (cyclisation)
[1] = late stage modification step, HPLC

Substance | step yield (late stage modification step) | final HPLC purity [1] | crude HPLC purity [1] | step yield (coupling step)
H-MeLeu-Val-MeLeu-Ala-D-Ala-MeLeu-MeLeu-MeVal-MeBmt(OAc)-Abu-Sar-OMe | 76% | 98% | – | –
Boc-D-MeAla-EtVal-Val-MeLeu-Ala-D-Ala-MeLeu-MeLeu-MeVal-MeBmt(OAc)-Abu-NMe-CH2—CH2—OH | 81% | – | – | –
MeBmt(OAc)-CsA | 92% | – | – | –
H-Val-MeLeu-Ala-D-Ala-MeLeu-MeLeu-MeVal-MeBmt(OAc)-Abu-Sar-OMe | 61% | 99% | – | –
H-D-MeAla-EtVal-Val-MeLeu-Ala-D-Ala-MeLeu-MeLeu-MeVal-MeBmt-Abu-OH | 64% | – | 86% | –
Boc-D-MeAla-EtVal-Val-MeLeu-Ala-D-Ala-MeLeu-MeLeu-MeVal-MeBmt(OAc)-Abu-Sar-OMe | – | – | – | 90%
Ph-NH—C(S)— MeLeu-Val-MeLeu-Ala-D-Ala-MeLeu-MeLeu-MeVal-MeBmt(OAc)-Abu-Sar-OMe | 90% | – | – | –
